Results of unrelated studies side by side (data: NIAID ChemDB).

All rows: whole-cell or culture tests; organism: Mycobacterium tuberculosis

ECn is the concentration giving n% inhibition of infection, replication or growth. a–b is a range or a potency band. MIC50, MIC90 and the like: level of inhibition, or share of isolates inhibited. Rows are shuffled and stem from different studies. MIC bound comes from a single tested concentration. An empty or dashed field is not shown. Percent inhibition refers to the dose given; in toxicity tests it is the harm to the cells.

smiles | conditions | mutations | endpoint | read by | strain | dose | cell line | value
NNC(=O)c1ccncc1 |  |  | MIC | visual reading | H37Rv |  |  | ≤22.6 µM
Nc1ccc(C(=O)O)c(O)c1 |  |  | MBC |  | BCG |  |  | 8 µg/mL
O=c1oc2ccccc2c(O)c1C=NC(=S)c1ccncc1 |  |  | inhibition | resazurin | H37Rv | 6.25 µg/mL |  | -15%
CCc1ccccc1N=C(Nn1c(C)nc2ccccc2c1=O)SC |  |  | EC50 | resazurin | H37Rv |  |  | 25 µg/mL
O=C(NNC1OC[C@H](O)[C@H](O)[C@@H]1O)c1ccncc1 |  |  | MIC90 |  | H37Rv (ATCC 27294) |  |  | 3.12 µg/mL
Cn1c(N)c(N=Nc2ccc(S(=O)(=O)Nc3ccccn3)cc2)c(=O)n(C)c1=O |  |  | MIC | BACTEC | H37Rv |  |  | ≥12.5 µg/mL
CC(C)N=c1cc2n(-c3ccc(Cl)cc3)c3ccccc3nc-2cc1Nc1ccc(Cl)cc1 |  |  | MBC |  | BCG |  |  | 0.25 µg/mL
O=C(Nc1ccccc1)N1CCc2c(c(-c3ccccc3)nn2Cc2cn(-c3ccc(Br)cc3)nn2)C1 |  |  | MIC | visual reading | H37Rv |  |  | 90.18 µM
COc1cccc(-c2csc(NC(=O)c3ccco3)n2)c1 |  |  | inhibition |  | H37Ra | 10 µM |  | <0%
CN(C)CCCN1C(=O)C2CCC(C)(C1=O)C2(C)C |  |  | MIC bound | BACTEC | H37Rv |  |  | >12.5 µg/mL
COc1ccc(/C(CN2CCN(c3cc4c(cc3F)c(=O)c(C(=O)O)cn4C3CC3)CC2)=N\O)cc1 |  |  | MIC |  | H37Rv |  |  | >6.25 µg/mL
Fc1ccc(NCc2cc3ccccc3nc2Cl)cc1Cl |  |  | MIC |  | H37Ra |  |  | >400 µg/mL
CSC(=Nc1ccccc1)Nn1c(C)nc2ccccc2c1=O |  |  | EC50 | resazurin | H37Rv |  |  | 25 µg/mL
CCc1nc2ccc(Cl)cn2c1C(=O)NCc1ccc(N2CCC(c3ccc(OC(F)(F)F)cc3)CC2)cc1 |  |  | MIC50 | resazurin | H37Rv |  |  | 0.00145 µM
Cc1ccc2nc(SCc3cccc(C#N)c3)[nH]c2c1 |  |  | MIC |  | MY 332/88 |  |  | 62 µM
COCCc1c(C(=O)OC)[n+](=O)c2cc(Cl)c(Cl)cc2n1[O-] | inside macrophages |  | EC99 |  | H37Rv |  |  | >1.56 µg/mL
CO[C@@]12[C@H](COC(=O)NCCO)C3=C(C(=O)C(C)=C(N)C3=O)N1C[C@H]1[C@@H]2N1C |  |  | MIC |  | INH-r |  |  | 6.3 µg/mL
CCn1cc(C(=O)O)c(=O)c2cc(F)c(N3CCN(C/C(=N/O)c4ccc(F)cc4)CC3)nc21 |  |  | MIC |  | H37Rv |  |  | >6.25 µg/mL
C/C(=N\OCc1nnc(NCc2ccccc2)o1)c1ccccc1 |  |  | inhibition |  |  | 12.5 µg/mL |  | 7–56%
NCC[C@H](O)C(=O)N[C@@H]1C[C@H](N)[C@@H](O[C@H]2O[C@H](CN)[C@@H](O)[C@H](O)[C@H]2O)[C@H](O)[C@H]1O[C@H]1O[C@H](CO)[C@@H](O)[C@H](N)[C@H]1O |  |  | MIC |  |  |  |  | 1 µg/mL
Cc1ccc2nc(SCc3ccc(C(F)(F)F)cc3)[nH]c2c1 |  |  | MIC |  | MY 332/88 |  |  | 32 µM
CCCCC/C=C/NNC(=O)c1cccs1 |  |  | MIC |  | BCG |  |  | 6 µg/mL
O=C(Nc1ccc(NC2=NCCN2)cc1)c1cc(C(=O)Nc2ccc(NC3=NCCN3)cc2)cc([N+](=O)[O-])c1 |  |  | MIC bound | resazurin | H37Rv |  |  | >6.25 µg/mL
NC(=O)c1cnccn1 |  |  | MIC |  | KK11-20 |  |  | >200 µg/mL
CC1(C)O[C@H]2OC(/C=N/NC(=O)c3ccncc3)[C@H](O)[C@H]2O1 |  |  | MIC90 |  | H37Rv (ATCC 27294) |  |  | 0.62 µg/mL
Cc1ccc2nc(SCc3ccc(C(N)=S)cc3)[nH]c2c1 |  |  | MIC |  | MY 332/88 |  |  | 8 µM
CC1(C)CC(N=c2cc3n(-c4ccc(Cl)cc4Cl)c4ccccc4nc-3cc2Nc2ccc(Cl)cc2Cl)CC(C)(C)N1 |  |  | MIC |  | TBRP321 (INH RMP-resistant) |  |  | 0.06 µg/mL
C/C(=N\OCCc1nnc(N2CCOCC2)o1)c1ccccc1 |  |  | inhibition |  |  | 12.5 µg/mL |  | 7–56%
CC(=O)N[C@@H]1C(NNC(=O)c2ccncc2)O[C@@H](CO)[C@@H](O)[C@@H]1O |  |  | MIC90 |  | H37Rv (ATCC 27294) |  |  | >100 µg/mL
CCn1cc(C(=O)O)c(=O)c2cc(F)c(N3CCN(CC(=O)c4ccc(F)cc4)CC3)nc21 |  |  | MIC |  | H37Rv |  |  | >6.25 µg/mL
NC(=S)N(Cc1cc2ccccc2nc1Cl)c1ccc(F)cc1 |  |  | MIC |  | H37Ra |  |  | 100 µg/mL
C=C(C)C1CC/C(C)=C\CCC2(C)OC2CC/C(CO)=C\C1O |  |  | inhibition | BACTEC | H37Rv | 12.5 µg/mL |  | 23%
CC(C)N=c1cc2n(-c3ccc(Cl)cc3)c3ccccc3nc-2cc1Nc1ccc(Cl)cc1 |  |  | MIC |  | H37Rv |  |  | 0.06 µg/mL
CC(C)=NNC(=O)CNc1cccc(C(F)(F)F)c1 |  |  | inhibition | BACTEC | H37Rv | 12.5 µg/mL |  | 18%
Cc1cc2nccc(-c3ccccc3CON)c2c(C)c1-c1ccc(CN2CCOCC2)cc1 |  |  | MIC90 | fluorescence |  |  |  | 20 µM
O=C(Nc1ccccc1)N1CCc2c(c(-c3ccccc3)nn2Cc2cn(-c3ccccc3)nn2)C1 |  |  | MIC | visual reading | H37Rv |  |  | 105 µM
COc1ccc(-c2nnc(CON=C(c3ccccc3)c3ccccc3)o2)cc1 |  |  | inhibition |  |  | 12.5 µg/mL |  | 7–56%
Cc1ccc2nc(SCc3cccc(F)c3)[nH]c2c1 |  |  | MIC |  | MY 332/88 |  |  | 32 µM
CC1(C)CC(N=c2cc3n(-c4cc(Cl)cc(Cl)c4)c4ccccc4nc-3cc2Nc2cc(Cl)cc(Cl)c2)CC(C)(C)N1 |  |  | MIC |  | TBRP274 (INH SM-resistant) |  |  | 0.03 µg/mL
Cc1cc2cc3c4c(nn5nnnc5c4c2o1)-c1ccccc1CC3 |  |  | inhibition | BACTEC | H37Rv | 12.5 µg/mL |  | 0%
C/C=C/CCNNC(=O)c1ccncc1 |  |  | MIC |  | BCG |  |  | 0.02 µg/mL
CNC(=S)N(Cc1cc2ccccc2nc1Cl)c1ccc(C)cc1 |  |  | MIC |  | H37Ra |  |  | 400 µg/mL
CCN(CC)CCNc1ccc(C)c2oc3ccc(O)cc3c(=O)c12 |  |  | MIC |  | KM-R |  |  | 12.5 µg/mL
Cc1ccc2nc(SCc3ccc(Br)cc3)[nH]c2c1 |  |  | MIC |  | MY 332/88 |  |  | >32 µM
CCCN1CN(C(C(=O)NC2C(=O)N3C(C(=O)O)=C(C)CSC23)c2ccc(O)cc2)CSC1=S |  |  | MIC bound | BACTEC | H37Rv |  |  | >12.5 µg/mL
Cc1ccc2nc(SCc3ccccc3[N+](=O)[O-])[nH]c2c1 |  |  | MIC |  | MY 332/88 |  |  | 62 µM
CSC(=NCc1ccccc1)Nn1c(C)nc2ccccc2c1=O |  |  | EC50 | resazurin | H37Rv |  |  | 25 µg/mL
Cc1ncc(C(=O)NN)c(=O)[nH]1 |  |  | MIC |  | BCG |  |  | 400 µg/mL
C/C(=N\OCc1nnc(N2CCOCC2)o1)c1ccccc1 |  |  | inhibition |  |  | 12.5 µg/mL |  | 7–56%
CC(=O)Nc1ccc(/C=N/NC(N)=S)cc1F |  |  | MIC |  | Kanamycin-resistant |  |  | ≤0.1 µg/mL
CO[C@H]1/C=C/O[C@@]2(C)Oc3c(C)c(O)c4c(O)c(c(/C=N/N5CCN(C)CC5)c(O)c4c3C2=O)NC(=O)/C(C)=C\C=C\[C@H](C)[C@H](O)[C@@H](C)[C@@H](O)[C@@H](C)[C@H](OC(C)=O)[C@@H]1C |  |  | MIC |  | TN805 |  |  | >32 µg/mL
CC(=O)OCCN1CCN(CCCN2c3ccccc3Sc3ccc(C(F)(F)F)cc32)CC1 |  |  | MIC bound | BACTEC | H37Rv |  |  | ≤12.5 µg/mL
NC(=O)c1ccncc1 |  |  | MIC |  | BCG |  |  | 1000 µg/mL
Cc1ccc(N(Cc2cc3ccccc3nc2Cl)C(N)=S)cc1 |  |  | MIC |  | H37Ra |  |  | 200 µg/mL
Cc1csc2nc(-c3ccccc3)c(/C=N/NC(=O)CN(C)C)n12 |  |  | inhibition | BACTEC | H37Rv | 12.5 µg/mL |  | 3%
CC(C)(C)OCOC(=O)c1cnccn1 |  |  | MBC |  | KK11-20 |  |  | 25 µg/mL
COc1cccc(-n2cc(Cn3nc(-c4ccccc4)c4c3CCN(C(=O)Nc3ccccc3)C4)nn2)c1 |  |  | MIC | visual reading | H37Rv |  |  | 98.89 µM
c1ccc(C(=NOCc2nnc(-c3ccccc3)o2)c2ccccc2)cc1 |  |  | inhibition |  |  | 12.5 µg/mL |  | 7–56%
Clc1ccc(NCc2cc3ccccc3nc2Cl)cc1Cl |  |  | MIC |  | H37Ra |  |  | >400 µg/mL
CCn1cc(C(=O)O)c(=O)c2cc(F)c(N3CCN(CC(=O)c4ccc(F)cc4)CC3)cc21 |  |  | EC50 |  | H37Rv |  | VERO | <6.25 µg/mL
O=C(Nc1ccccc1)N1CCc2c(c(-c3ccccc3)nn2Cc2cn(-c3ccccc3I)nn2)C1 |  |  | MIC | visual reading | H37Rv |  |  | 166 µM
C/C(=N\OCCc1nnc(N2CCCCC2)o1)c1ccccc1 |  |  | inhibition |  |  | 12.5 µg/mL |  | 7–56%
CO[C@H]1/C=C/O[C@@]2(C)Oc3c(C)c(O)c4c(=O)c(c5oc6cc(N7CCN(CC(C)C)CC7)cc(=O)c6nc5c4c3=C2O)NC(=O)/C(C)=C\C=C\[C@H](C)[C@H](O)[C@@H](C)[C@@H](O)[C@@H](C)[C@H](OC(C)=O)[C@@H]1C |  |  | MBC |  | 2847 (rifampin-sensitive) |  |  | 0.025 µg/mL
O=C(CN1CCN(c2cc3c(cc2F)c(=O)c(C(=O)O)cn3C2CC2)CC1)c1ccccc1 |  |  | MIC |  | H37Rv |  | VERO | 0.78 µg/mL
NNC(=O)c1ccncc1 |  | SM-resistant | MIC | resazurin | Clinical isolate BRF 7 |  |  | 0.03 µg/mL
CCCCC(O)(c1ccc2nc(NC(=O)OC)[nH]c2c1)c1cccs1 |  |  | inhibition | BACTEC |  | 0.5 µM |  | 0%
CCn1cc(C(=O)O)c(=O)c2cc(F)c(N3CCN(C/C(=N/O)c4ccc(F)cc4)CC3)cc21 |  |  | EC50 |  | H37Rv |  |  | >6.25 µg/mL
CSC(=Nc1cccc(Cl)c1)Nn1c(C)nc2ccccc2c1=O |  |  | EC50 | resazurin | H37Rv |  |  | 6.25 µg/mL
O=C(N/N=C/C=C/c1ccccc1)c1ccncc1 |  |  | MIC |  | BCG |  |  | 0.06 µg/mL
Cc1cccc(CSc2nc3ccc(C)cc3[nH]2)c1 |  |  | MIC |  | MY 332/88 |  |  | 62 µM
Nc1c(C(=O)Nc2ccccc2)[n+]([O-])c2ccccc2[n+]1[O-] |  |  | MIC |  | KM-R |  |  | 6.3 µg/mL
Clc1ccc(NCc2cc3ccccc3nc2Cl)cc1 |  |  | MIC |  | H37Ra |  |  | >400 µg/mL
S=c1[nH]nc(CCON=C(c2ccccc2)c2ccccc2)o1 |  |  | inhibition |  |  | 12.5 µg/mL |  | 7–56%
C=CCN=C(Nn1c(C)nc2ccccc2c1=O)SC |  |  | EC50 | resazurin | H37Rv |  |  | 25 µg/mL
O=C(Nc1ccccc1)N1CCc2c(c(-c3ccccc3)nn2Cc2cn(-c3ccc(F)c(Cl)c3)nn2)C1 |  |  | MIC | visual reading | H37Rv |  |  | 105 µM
O=C(Nc1ccc(C2=NCC(O)CN2)cc1)c1ccc(C(=O)Nc2ccc(C3=NCC(O)CN3)cc2)cc1 |  |  | MIC | BACTEC | H37Rv |  | VERO | 0.39 µg/mL
Nc1ccc(S(=O)(=O)c2ccc(N)cc2)cc1 |  |  | MIC |  | BCG |  |  | >128 µg/mL
CCCCCC[N+]12CC=C3COC(=O)C(C)(O)C(C)(O)C(C)C(=O)OC(CC1)C32.[Br-] |  |  | MIC | BACTEC | H37Rv |  |  | ≥12.5 µg/mL
O=C(NNC1O[C@@H](CO)[C@@H](O[C@@H]2O[C@H](CO)[C@H](O)[C@H](O)[C@H]2O)[C@H](O)[C@@H]1O)c1ccncc1 |  |  | MIC90 |  | H37Rv (ATCC 27294) |  |  | 2.5 µg/mL
NNC(=O)c1ccncc1 |  |  | MBC |  |  |  |  | 0.13 µg/mL
C/C(=N\OCc1nnc(Nc2ccc(Br)cc2)o1)c1ccccc1 |  |  | inhibition |  |  | 12.5 µg/mL |  | 7–56%
CC(O)c1ccc2c(c1)C(O)C[C@H]1[C@](C)(CO)CCC[C@]21C |  |  | MIC bound | BACTEC | H37Rv |  |  | >12.5 µg/mL
C[C@@H]1OC(NNC(=O)c2ccncc2)[C@@H](O)[C@@H](O)[C@@H]1O |  |  | MIC90 |  | H37Rv (ATCC 27294) |  |  | 0.62 µg/mL
COc1cccc2c1C(=O)c1c(O)c3c(c(O)c1C2=O)CC(O)(C(C)=O)CC3OC1CC(NCC2(O)OCC(O)C2O)C(O)C(C)O1 |  |  | MIC | BACTEC | H37Rv |  |  | ≥12.5 µg/mL
Cc1cc(C)c(-c2csc(NC(=O)c3ccc([N+](=O)[O-])o3)n2)c(C)c1 |  |  | inhibition |  | H37Ra | 10 µM |  | <0%
O=C(NC1CC(c2ccccc2)(c2ccccc2)OC1=O)c1ccccc1 |  |  | inhibition | BACTEC | H37Rv | 12.5 µg/mL |  | 1%
O=C(NNC1C=CCCC1)c1cccs1 |  |  | MIC |  | BCG |  |  | 3 µg/mL
Cc1c2cc[n+](C)cc2c(CO[C@H]2O[C@@H](C[O-])[C@@H](O)[C@H]2O)c2c3ccccc3n(C)c12 |  |  | MIC bound | resazurin | H37Rv |  |  | >6.25 µg/mL
COc1c(N2CC[C@@H](C(C)(C)N)C2)c(F)cc2c(=O)c3c(=O)[nH]sc3n(C3CC3)c12 |  |  | MIC |  | ATCC35801 |  |  | 0.06 µg/mL